Reference: PubChem BioAssay AID1063 (University of Pittsburgh Molecular Library Screening Center, 2008)
Only a part is listed here, and it is no random draw. Active and inactive are the calls of the source. Rule as the data show it: active = inhibition above about 50%; inactive = the rest.

Test: Leishmania major promastigote growth inhibition, primary screen (AID 1063);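 also: promastigotes grown with compound for 44 hours at 28 °C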
Conditions: Leishmania major promastigotes, resazurin fluorescence viability; at 10 µM; stronger effect = higher value

Compound	inhibition
CN1CCC(Nc2cccc(F)c2)CC1	inactive: 3.92%
CN(C)c1cccc(C(=O)NCC2(N3CCCCC3)CCCCC2)c1	inactive: 10.1%
COc1ccc(CN(CCCl)CCCl)cc1Cl	inactive: 5.63%
CC(C)c1ccc(NC2CCN(C(=O)OC(C)(C)C)CC2)cc1	inactive: -4.14%
CN1CCN(CCOC(=O)C(O)(c2ccccc2)c2ccccc2)CC1	inactive: 38.9%
COc1ccc(NC2CCN(C(=O)OC(C)(C)C)CC2)cc1	inactive: 4.05%
O=C(NCC1(N2CCOCC2)CCCCC1)c1cc(=O)[nH]c2ccccc12	inactive: 0.88%
O=C(NCC1(N2CCCCC2)CCCCC1)c1cccc([N+](=O)[O-])c1	inactive: 1.07%
N#CC1(Nc2ccccc2)CCN(CCc2ccccc2)CC1	inactive: -1.39%
COc1ccc(NC2CCN(CCc3ccccc3)CC2)c(OC)c1	active: 91.7%
O=C(NCC1(N2CCOCC2)CCCCC1)c1cc2ccccc2o1	inactive: 12.4%
CCOC(=O)N1CCC(Nc2ccc(OC)cc2)CC1	inactive: 12.9%
O=C(OC1CN2CCC1CC2)C1c2ccccc2Oc2ccccc21 (stereo not given)	active: 100%
COc1ccc(C(=O)NCC2(N3CCCCC3)CCCCC2)c(OC)c1OC	inactive: -5%
CCC(CO)(C(=O)OC1CN2CCC1CC2)c1ccccc1 (stereo not given)	active: 91.7%
COc1cc(OC)cc(C(=O)NCC2(N3CCOCC3)CCCCC2)c1	inactive: 5.37%
CCOc1ncccc1C(=O)NCC1(N2CCOCC2)CCCCC1	inactive: 5.83%
CC(C)(C)OC(=O)N1CCC(Nc2ccccc2)CC1	inactive: -14.3%
CCN1CCC(Nc2cccc(F)c2)CC1	inactive: -2.06%
CN(C)c1ccc(C(=O)NCC2(N3CCCCC3)CCCCC2)cc1	inactive: 5.06%
c1ccc(CN2CCC(Nc3ccccc3)CC2)cc1	active: 86.2%
N#Cc1ccc(C(=O)NCC2(N3CCCCC3)CCCCC2)cc1	inactive: -0.46%
N/C(=N\O)c1c(N)no[n+]1[O-]	inactive: -1.16%
O=C(OC1CN2CCC1CC2)C1c2ccccc2C=Cc2ccccc21 (stereo not given)	active: 77.9%
COc1ccc(C(=O)NCC2(N3CCOCC3)CCCCC2)cc1OC	inactive: 2.33%
